Measurements as given in patent US8716475B2, “2-aminopyrimidine modulators of the histamine H4 receptor” (Janssen Pharmaceutica NV, priority 2007, dated 2014).

The chains behind the UniProt entries cited, without tags or fusion partners. Where a name states a change or a piece, a line headed by the entry shows the natural chain unless it says otherwise.
UniProt Q9H3N8: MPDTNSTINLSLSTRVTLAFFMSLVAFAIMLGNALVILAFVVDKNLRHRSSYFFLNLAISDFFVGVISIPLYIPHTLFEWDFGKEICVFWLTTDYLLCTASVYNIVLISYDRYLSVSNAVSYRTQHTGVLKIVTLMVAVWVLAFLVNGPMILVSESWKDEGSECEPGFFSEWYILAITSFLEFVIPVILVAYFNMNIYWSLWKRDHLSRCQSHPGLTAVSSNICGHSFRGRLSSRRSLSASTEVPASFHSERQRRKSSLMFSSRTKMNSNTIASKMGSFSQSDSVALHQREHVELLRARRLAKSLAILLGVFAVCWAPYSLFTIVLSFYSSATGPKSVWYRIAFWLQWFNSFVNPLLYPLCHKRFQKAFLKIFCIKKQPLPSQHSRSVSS

Target: T1, human H4 receptor (Homo sapiens, UniProt Q9H3N8)
T1 construct: expressed in transfected cells
Assay: Binding Assay on Recombinant Human Histamine H4 Receptor
Details: Table 2; [3H] histamine competition binding, membranes of SK-N-MC cells transfected with human H4 receptor; average of results

Ki: 8 nM
SMILES: CN[C@H]1CCN(c2cc(C(C)(C)C)nc(N)n2)C1 [Example 130, (S)-4-tert-Butyl-6-(3-methylamino-pyrrolidin-1-yl)-pyrimidin-2-ylamine]
